Pooled drug test results. Numbers come from NIAID ChemDB, via PubChem.

All rows: growth or infection tests; species: Varicella zoster virus; cells: HEL; measure: EC50

An empty or dashed field is not shown. Lines come from different laboratories, so protocols vary. a–b is a range or a potency band. ECn: concentration that inhibits the pathogen or its effect by n%.

compound | strain | method | value
CCCCCCCOc1ccc(-c2cc3cn([C@H]4C[C@H](O)[C@@H](CO)O4)c(=O)nc3o2)cc1 | OKA | plaque count | 0.006 µM
O=C(O)P(=O)(O)O | Oka BVaraU-resistant | cytopathic effect | 42 µM
Nc1nc2c(ncn2[C@@H]2O[C@H](CO)[C@H]2CO)c(=O)[nH]1 | TK+/YS | plaque count | 2.1 µg/mL
CCCc1ccc(-c2cc3cn(C4CC[C@@H](CO)O4)c(=O)nc3o2)cc1 | 07/1 (TK-) | plaque count | >50 µM
O=C(O)CP(=O)(O)O | Oka penciclovir-resistant/B | cytopathic effect | 123.5 µM
O=C1O/C(=C\Cn2ccc(=O)[nH]c2=O)C(OCc2ccccc2)=C1O | TK+ | - | >50 µg/mL
Cc1ccn2c(C3OCCS3)cnc2c1 | YS | - | >1000 µM
CCCCCCCCc1cc2cn([C@@H]3O[C@H](CO)[C@@H](O)[C@@H]3O)c(=O)nc2o1 | - | plaque count | 3.6 µM
COc1nc(=O)n([C@H]2C[C@H](O)[C@@H](CO)O2)cc1/C=C/Cl | 7/01 (TK-) | plaque count | >40 µg/mL
Nc1nc(=O)n([C@@H]2O[C@H](CO)[C@@H](O)[C@@H]2F)cc1I | YS/R (TK-) | plaque count | 22.1 µM
O=c1[nH]cnc2c1ncn2[C@@H]1O[C@H](CO)[C@H]1CO | (TK-)/YS/R | plaque count | 124.3 µg/mL
Nc1nc2c(ncn2COCCO)c(=O)[nH]1 | 07/1 (TK-) | plaque count | 53.3 µM
CCCCCC#Cc1cn(S(=O)(=O)c2ccc(C)cc2)c(=O)[nH]c1=O | OKA | plaque count | >16 µM
OC[C@H]1O[C@@H](c2cc(C#CI)c(F)cc2F)C[C@@H]1O | YS | plaque count | >20 µM
O=c1[nH]c(=O)n([C@H]2C[C@H](O)[C@@H](CO)O2)cc1/C=C/Br | OKA (TK+) | plaque count | 0.0028 µM
CCCCCCCc1cc2cn([C@H]3C[C@H](O)[C@@H](CO)O3)c(=O)nc2o1 | OKA | plaque count | 0.12 µM
Nc1ncnc2c1ncn2C[C@H](O)CO | 07/1 (TK-) | cytopathic effect | 200 µg/mL
CCCCCc1ccc(-c2cc3cn(C4CC[C@@H](CO)O4)c(=O)nc3o2)cc1 | OKA (TK+) | plaque count | 2.5 µM
CCCCCCCC#Cc1cn(S(=O)(=O)c2ccc(C)cc2)c(=O)[nH]c1=O | OKA | plaque count | >16 µM
Nc1ncnc2c1ncn2C[C@@H](CO)OCP(=O)(O)O | 07/1 (TK-) | plaque count | 0.04 µM
O=c1[nH]c(=O)n([C@H]2C[C@H](O)[C@@H](CO)O2)cc1I | YS-W3 G19 H3 | plaque count | 0.4 µg/mL
O=C1OC(C(O)Cn2ccc(=O)[nH]c2=O)C(OCc2ccccc2)=C1OCc1ccccc1 | TK- | - | >50 µg/mL
CCCCCCC#Cc1c[nH]c(=O)[nH]c1=O | 07/1 | plaque count | >80 µM
Nc1nc2c(ncn2CC[C@@H](O)CO)c(=O)[nH]1 | TK- | - | >250 µM
CCOC(=O)/C=C/C=C/[C@H]1O[C@@H](n2ccc(=O)[nH]c2=O)[C@H](O)[C@@H]1O | OKA | - | >120 µM
CN1c2ccc(Cl)cc2C(C)(C)C12C=Cc1cc([N+](=O)[O-])ccc1O2 | YS (TK+) | plaque count | 2.7 µM
O=c1[nH]c(=O)n([C@H]2C[C@H](O)[C@@H](CO)O2)cc1/C=C\Cl | YS/R (TK-) | plaque count | >40 µg/mL
CC#Cc1cn([C@@H]2O[C@H](CO)[C@@H](O)[C@@H]2O)c(=O)[nH]c1=O | YS (TK+) | plaque count | 0.34 µM
O=c1[nH]c(=O)n([C@H]2C[C@H](O)[C@@H](CO)O2)cc1/C=C/Br | OKA | cytopathic effect | 0.003 µM
CCOc1ccc(-c2cc3cn([C@H]4C[C@H](O)[C@@H](CO)O4)c(=O)nc3o2)cc1 | YS | plaque count | 0.012 µM
CO[C@H](CO)[C@@H](O)CCn1cc(C)c(=O)[nH]c1=O | YS/R (TK-) | cytopathic effect | >400 µg/mL
Nc1nc2c(ncn2CCC(CO)CO)c(=O)[nH]1 | Clinical isolate VZV-16 | cytopathic effect | 3.65 µM
CCCCCCCCC#Cc1c[nH]c(=O)[nH]c1=O | OKA | plaque count | >16 µM
Nc1nc2c(ncn2CCC(CO)CO)c(=O)[nH]1 | Kawaguchi | plaque count | 5.6 µg/mL
CCCCCCCCCCC#Cc1c[nH]c(=O)[nH]c1=O | OKA | plaque count | >80 µM
CCCOc1ccc(-c2cc3cn([C@H]4C[C@H](O)[C@@H](CO)O4)c(=O)nc3o2)cc1 | YS | plaque count | 0.0025 µM
CC1(C)[C@@H](CCO)C[C@H]1n1nnc2c(N)ncnc21 | (TK-)07/1 | plaque count | >20 µg/mL
Nc1ccn(C[C@@H](CO)OCP(=O)(O)O)c(=O)n1 | 07/1 (TK-) | plaque count | 0.23 µM
Nc1ncnc2nn(C[C@@H](CF)OCP(=O)(O)O)nc12 | 07/1 (TK-) | cytopathic effect | >10 µg/mL
Nc1nc(N)c2ncn(CCOCP(=O)(O)O)c2n1 | Oka acyclovir-resistant | cytopathic effect | 3 µM
CO[C@H](CO)[C@@H](O)CCn1cnc2c(N)ncnc21 | YS | cytopathic effect | >400 µg/mL
C[C@H](Cn1nnc2c(N)ncnc21)OCP(=O)(O)O | YS (TK+) | cytopathic effect | 8 µg/mL
Cc1ccn2c(C3SCCS3)cnc2c1 | YS/R | - | >1000 µM
O=c1nc2oc(-c3ccccc3)cc2cn1C1CC[C@@H](CO)O1 | YS (TK+) | plaque count | >200 µM
CCCCCOc1ccc(-c2cc3cn([C@H]4C[C@H](O)[C@@H](CO)O4)c(=O)nc3o2)cc1 | YS | plaque count | 0.001 µM
Nc1nc2nn(CCOCP(=O)(O)O)nc2c(=O)[nH]1 | OKA (TK+) | cytopathic effect | 40 µg/mL
Cc1cccn2c(C3OCCS3)cnc12 | YS | - | >1000 µM
CCCCCCC#Cc1cn(S(=O)(=O)c2ccc(C)cc2)c(=O)[nH]c1=O | 07/1 | plaque count | >16 µM
CC1(C)[C@@H](CCO)C[C@H]1n1nnc2c(N)nc(N)nc21 | (TK-)/YS/R | plaque count | >20 µg/mL
Cc1cn(CC[C@H](O)CCO)c(=O)[nH]c1=O | YS/R (TK-) | cytopathic effect | >400 µg/mL
COc1ccc2c(c1)OC1(C=C2)N(C)c2ccccc2C1(C)C | YS (TK+) | plaque count | 9.2 µM
Cc1cccn2c(C3SCCS3)cnc12 | YS/R | - | >1000 µM
OC[C@H]1O[C@@H](c2cc(C#CBr)c(F)cc2F)C[C@@H]1O | OKA | plaque count | 29 µM
O=c1[nH]c(=O)n([C@@H]2O[C@H](CO)[C@@H](O)[C@@H]2O)cc1/C=C/Br | YS | plaque count | 0.0005 µg/mL
O=C(O)P(=O)(O)O | TK- | - | 250 µM
Nc1ncnc2nn(C[C@@H](CO)OCP(=O)(O)O)nc12 | OKA (TK+) | cytopathic effect | >100 µg/mL
CCCCC#Cc1cn(S(=O)(=O)c2ccc(C)cc2)c(=O)[nH]c1=O | OKA | plaque count | >16 µM
COc1ccc2c(c1)C=CC1(O2)N(C)c2ccccc2C1(C)C | 07/1 (TK-) | plaque count | >2.1 µM
CCCCCCCCCCc1cc2cn([C@H]3C[C@H](O)[C@@H](CO)O3)c(=O)nc2o1 | 07/1 (TK-) | plaque count | >50 µM
Nc1ccn(CC[C@H](O)CCO)c(=O)n1 | 07/1 (TK-) | cytopathic effect | >400 µg/mL
O=C1O/C(=C\Cn2ccc(=O)[nH]c2=O)C(O)=C1O | TK+ | - | >50 µg/mL
Nc1nc2c(ncn2COCCO)c(=O)[nH]1 | TK+/YS | plaque count | 0.33 µg/mL
Nc1nc2c(ncn2[C@H]2CCC[C@H]2CO)c(=O)[nH]1 | YS (TK+) | plaque count | >50 µg/mL
OC[C@H]1O[C@@H](c2cc(C(O)CI)c(F)cc2F)C[C@@H]1O | YS (TK+) | plaque count | 126 µg/mL
COC(=O)C(C)(C)NP(=O)(OC[C@H]1O[C@@H](n2cc(/C=C/Br)c(=O)[nH]c2=O)C[C@@H]1O)Oc1ccccc1 | 07 (TK-) | cytopathic effect | >200 µM
Nc1nc(N)c2ncn([C@H]3CCC[C@H]3CO)c2n1 | YS (TK+) | plaque count | >50 µg/mL
Nc1nc2c(ncn2CCC(CO)CO)c(=O)[nH]1 | 07/1 (TK-) | plaque count | 98.8 µM
O=c1[nH]c(=O)n([C@H]2C[C@H](O)[C@@H](CO)O2)cc1/C=C/Br | 07/1 (TK-) | cytopathic effect | >400 µg/mL
Nc1nc2c(ncn2CC(CO)CCO)c(=O)[nH]1 | ULF PE 9/84 (TK+) | - | 0.4–0.7 µM
Nc1nc2c(ncn2COC(CO)CO)c(=O)[nH]1 | 13 isolates | plaque count | 1.45 µM
OC[C@H]1O[C@@H](c2cc(C(O)C(I)I)c(F)cc2F)C[C@@H]1O | YS (TK+) | plaque count | 85 µg/mL
CC1(C)[C@@H](CCO)C[C@H]1n1nnc2c(=O)[nH]c(N)nc21 | (TK-)/YS/R | plaque count | >50 µg/mL
CCCCCCCCCCCCc1cc2cn([C@H]3C[C@H](O)[C@@H](CO)O3)c(=O)nc2o1 | YS | plaque count | 1.2 µM
CN1c2ccc([N+](=O)[O-])cc2C(C)(C)C12C=Cc1cc([N+](=O)[O-])ccc1O2 | YS (TK+) | plaque count | 1.5 µM
O=c1[nH]c(=O)n([C@H]2C[C@H](O)[C@@H](CO)O2)cc1-c1ccc(Br)s1 | 07/1 (TK-) | plaque count | >103 µM
O=c1[nH]c(=O)n([C@H]2C[C@H](O)[C@@H](CO)O2)cc1I | TK- | - | >100 µM
C=Cc1cc([C@H]2C[C@H](O)[C@@H](CO)O2)c(F)cc1F | YS/R (TK-) | plaque count | >200 µM
Nc1nc2c(ncn2C[C@H]2CCC[C@H]2CO)c(=O)[nH]1 | YS/R (TK-) | plaque count | >50 µg/mL

Again, the opening 4 rows:

compound	strain	method	value
CCCCCCCOc1ccc(-c2cc3cn([C@H]4C[C@H](O)[C@@H](CO)O4)c(=O)nc3o2)cc1	OKA	plaque count	0.006 µM
O=C(O)P(=O)(O)O	Oka BVaraU-resistant	cytopathic effect	42 µM
Nc1nc2c(ncn2[C@@H]2O[C@H](CO)[C@H]2CO)c(=O)[nH]1	TK+/YS	plaque count	2.1 µg/mL
CCCc1ccc(-c2cc3cn(C4CC[C@@H](CO)O4)c(=O)nc3o2)cc1	07/1 (TK-)	plaque count	>50 µM